In patent US8772502B2, “Alkylsulfinyl-substituted thiazolide compounds” (Romark Laboratories, L.C., priority 2010, dated 2014):

test system: HCV replicon cell line, AVA5 (sub-genomic CON1, genotype 1b); experiment: Primary HCV replicon assay, antiviral activity (intracellular HCV RNA); format: cell-based; details: CC50/EC50
Protocol: (§1) Antiviral activity of test compounds was assessed in a 3-day assay using the stably-expressing HCV replicon cell line, AVA5 (sub-genomic CON1, genotype 1b) [Korba, B. E. et al. Antiviral Res. 77, 56-63 (2008); Blight et al., Science 290, 1972-1974 (2000)] maintained as sub-confluent cultures on 96-well plates as previously described [Okuse et al., Antiviral Research 65, 23-34 (2005)]. Antiviral activity was determined by blot hybridization analysis of intracellular HCV RNA (normalized to the level of cellular B-actin RNA in each culture sample) and cytotoxicity was assessed by neutral red dye uptake after 3 days of treatment. Additional studies were performed using Huh7 cells containing another HCV replicon, H/FL-Neo, a genotype 1a full length construct [Blight et al., J. Virol. 77, 3181-3190 (2003)]. For studies involving human serum, standard culture medium (which contains 10% fetal bovine serum) and assay conditions were maintained.
(§2) EC50, EC90 and CC50 values (±standard deviations [S.D.]) were calculated by linear regression analysis using data combined from all treated cultures (Korba, B. E. et al. Antiviral Res. 77, 56-63 (2008)). […] Selectivity index (S.I.) was calculated as CC50/EC90 for HBV assays and CC50/EC50 for HCV assays.

Compound	SI
CC(=O)Oc1ccccc1C(=O)Nc1ncc([N+](=O)[O-])s1 [NTZ, Nitazoxanide]	148.0
O=C(Nc1ncc([N+](=O)[O-])s1)c1ccccc1O [TIZ, Tizoxanide]	100.0
CS(=O)(=O)c1cnc(NC(=O)c2ccccc2O)s1 [RM4863]	29.0
C[S+]([O-])c1csc(NC(=O)c2ccccc2O)n1 (stereo not drawn) [Compound 2, 2-hydroxy-N-(4-(methylsulfinyl)thiazol-2-yl)benzamide]	32.0

test system: HCV replicon, H/FL-Neo, a genotype 1a full length construct; experiment: Secondary HCV replicon assay, genotype 1A, antiviral activity; format: cell-based; details: CC50/EC50
Protocol: as §1, §2

Compound	SI
CC(=O)Oc1ccccc1C(=O)Nc1ncc([N+](=O)[O-])s1 [NTZ, Nitazoxanide]	149.0
O=C(Nc1ncc([N+](=O)[O-])s1)c1ccccc1O [TIZ, Tizoxanide]	119.0
CS(=O)(=O)c1cnc(NC(=O)c2ccccc2O)s1 [RM4863]	> 12.3
C[S+]([O-])c1csc(NC(=O)c2ccccc2O)n1 (stereo not drawn) [Compound 2, 2-hydroxy-N-(4-(methylsulfinyl)thiazol-2-yl)benzamide]	> 35.7

test system: HCV replicon cell line, AVA5 (sub-genomic CON1, genotype 1b); experiment: Secondary HCV replicon assay, genotype 1B, antiviral activity; format: cell-based; details: CC50/EC50
Protocol: as §1, §2

Compound	SI
CC(=O)Oc1ccccc1C(=O)Nc1ncc([N+](=O)[O-])s1 [NTZ, Nitazoxanide]	143.0
O=C(Nc1ncc([N+](=O)[O-])s1)c1ccccc1O [TIZ, Tizoxanide]	142.0
CS(=O)(=O)c1cnc(NC(=O)c2ccccc2O)s1 [RM4863]	> 11.1
C[S+]([O-])c1csc(NC(=O)c2ccccc2O)n1 (stereo not drawn) [Compound 2, 2-hydroxy-N-(4-(methylsulfinyl)thiazol-2-yl)benzamide]	> 45.5
